# Results taken from article PMC12977544, “Phenotypic high-throughput screening identifies modulators of gut microbial choline metabolism” (mBio, 2026).
# Tested on: gut microbial community of conventional mice
# Experiment: 16S rRNA sequencing of fecal samples of conventional mice
# Assay type: in vivo, Mus musculus C57BL/6
# Settings: 30 mg/kg, before vs after treatment
compound,measurement,value
Cc1ccc(-c2cc(C(=O)NCCCCCN3CCCCCC3)c(C)[nH]2)cc1C [Compound 45],Alpha diversity of the gut microbial community,moderately decreased
same,Effect on genus-level taxa of gut microbiome,no significantly altered genus-level taxa
